Structures were worked out from names or drawings and are uncertain.
Assays:
[1] = test system: Huh7 cells that stably maintain a subgenomic HCV replicon (S22.3 cell-line); assay: Cell based HCV RNA replication assay (S22.3 replicon cells, real-time RT-PCR); settings: 72 hours
Method: Huh7 cells that stably maintain a subgenomic HCV replicon were established as previously described (Lohman et al., 1999. Science 285: 110-113) and designated as the S22.3 cell-line. S22.3 cells were maintained in Dulbecco's Modified […] Medium (DMEM) supplemented with 10% FBS and 0.5 mg/mL neomycin (Standard Medium). During the assay, DMEM medium supplemented with 10% FBS, containing 0.5% DMSO and lacking neomycin was used (Assay Medium). 16 hours prior to compound addition, S22.3 cells are trypsinized and diluted to 100 000 cells/ml in Standard Medium. 100μL (10 000 cells) are distributed into each well of a 96-well plate. The plate was then incubated at 37° C. with 5% CO2 until the next day.
10 μL of test compound (in 100% DMSO) was added to 2 ml of Assay Medium for a final DMSO concentration of 0.5% and the solution was sonicated for 15 min and filtered through a […] Millipore Filter Unit. 900 μl was transferred into row A of a Polypropylene Deep-Well Titer Plate. Rows B to H, contain 400 μL aliquots of Assay Medium (containing 0.5% DMSO), and were used to prepare serial dilutions (1/2) by transferring 400 μl from row to row (no compound was included in row H).
Cell culture medium was aspirated from the 96-well plate containing the S22.3 cells. […]
RNA was quantified on the STORM® system (Molecular Dynamics®) using the RiboGreen® RNA Quantification Kit (Molecular Probes®). […]

By UniProt entry, the sequences of proteins in these tests, tags left out. Chains listed by the source or under a name are the forms on record and can include a tag or linker. Residues count along the entry.
UniProt P26663, 2420-3010 with tags or gaps with the stated changes: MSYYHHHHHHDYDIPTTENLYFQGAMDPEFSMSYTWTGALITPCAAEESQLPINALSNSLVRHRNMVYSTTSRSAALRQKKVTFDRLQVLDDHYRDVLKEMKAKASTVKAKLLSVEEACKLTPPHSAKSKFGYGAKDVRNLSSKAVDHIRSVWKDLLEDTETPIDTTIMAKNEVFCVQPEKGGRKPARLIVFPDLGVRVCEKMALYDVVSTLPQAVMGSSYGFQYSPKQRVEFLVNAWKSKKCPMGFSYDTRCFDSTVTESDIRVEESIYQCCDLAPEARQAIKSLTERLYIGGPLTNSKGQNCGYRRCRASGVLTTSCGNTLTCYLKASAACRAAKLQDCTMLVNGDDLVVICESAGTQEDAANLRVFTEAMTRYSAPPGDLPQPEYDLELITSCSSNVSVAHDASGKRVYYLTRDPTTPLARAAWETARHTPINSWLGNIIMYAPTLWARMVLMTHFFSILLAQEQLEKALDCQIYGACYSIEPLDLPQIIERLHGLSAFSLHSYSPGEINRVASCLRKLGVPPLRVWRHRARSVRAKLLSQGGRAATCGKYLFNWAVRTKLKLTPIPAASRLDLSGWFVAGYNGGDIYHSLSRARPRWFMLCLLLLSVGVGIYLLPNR

[2] = biological target: hepatitis C virus RNA dependant polymerase (NS5B) (Hepatitis C virus genotype 1b, UniProt P26663); settings: HCV NS5B polymerase assay of Example 22

Row | Compound | EC50 [1] [µM] | IC50 [2] [µM]
1 | CC1CCCC(C)C1n1c(-c2ccoc2)nc2cc(C(=O)NC3(C(=O)Nc4ccc(/C=C/C(=O)O)cc4)CCCC3)ccc21 (stereo not shown) | < 5 | 0.5 to 5
2 | Cn1c(C(=O)O)cc2cc(NC(=O)C3(NC(=O)c4ccc5c(c4)nc(-c4ccoc4)n5C4CCCCC4)CCCNC3)ccc21 (single isomer, unassigned) | < 5 | < 0.5
